Pooled drug test results. Numbers come from NIAID ChemDB, via PubChem.

All rows: target-level tests; agent: HIV-1; target: Reverse transcriptase

a–b is a range or a potency band. ICn is the concentration giving n% inhibition. Lines come from different laboratories, so protocols vary.

CCc1ccc(-n2c(Br)nnc2SCC(=O)Nc2ccc(C(=O)N[C@H](C(=O)OC)C(C)C)cc2Cl)c2ccccc12 ; method: nucleotide incorporation / radiometric ; endpoint: IC50 ; changes: RT-Y181C ; value: <0.05 µM
Cc1cc(NC(=O)c2ccc(NC(=O)CSc3nnnn3-c3ccc(C(C)(C)C)cc3Cl)c(Cl)c2)ccc1/C=C/C(=O)O ; method: PicoGreen / fluorescence ; endpoint: IC50 ; changes: RT-K103 Y181C ; value: <1 µM
CN1CCN(c2cc(N)cc3c2CCN(c2nn4c(C5CC5)nnc4c4ccccc24)C3)CC1 ; method: RT activity / fluorescence ; endpoint: IC50 ; strain: KER2008 ; value: 13.9 µM
O=C(CSc1nnc(Br)n1-c1ccc(C2CC2)cc1Cl)Nc1ccc(C(=O)O)cc1Cl ; method: nucleotide incorporation / radiometric ; endpoint: IC50 ; changes: RT-Y181C ; value: <0.05 µM
Cc1ccc(-n2nnnc2SCC(=O)Nc2ccc(-c3coc(C)n3)cc2Cl)c(Cl)c1 ; method: PicoGreen / fluorescence ; endpoint: IC50 ; changes: RT-K103 Y181C ; value: <1 µM
COc1ccc2c(c1)CN(c1nn3c(-c4cccs4)nnc3c3ccccc13)CC2 ; method: RT activity / fluorescence ; endpoint: IC90 ; strain: 98US_MSC5016 ; value: >100 µM
O=C(O)CNC(=O)c1ccc(NC(=O)CSc2nnc(Br)n2-c2ccc(C3CC3)c3ccccc23)c(Cl)c1 ; method: nucleotide incorporation / radiometric ; endpoint: IC50 ; changes: RT-Y181C ; value: <0.05 µM
CCN1c2ncc(CC(O)c3ccncc3)cc2C(=O)N(C)c2ccc(F)nc21 ; method: nucleotide incorporation / radiometric ; endpoint: IC50 ; changes: RT-Y181C ; value: <1 µM
CCc1ccc(-n2c(Br)nnc2SCC(=O)Nc2ccc(C(=O)NCCCCO)cc2Cl)c2ccccc12 ; method: nucleotide incorporation / radiometric ; endpoint: IC50 ; changes: RT-Y188L ; value: <0.05 µM
CC(C)(C)c1ccc(-n2nnnc2SCC(=O)Nc2ccc(S(=O)(=O)NCC(=O)O)cc2Cl)c(Cl)c1 ; method: PicoGreen / fluorescence ; endpoint: IC50 ; changes: RT-K103 Y181C ; value: <1 µM
NS(=O)(=O)c1ccc(NC(=O)CSc2nnc(Br)n2-c2ccc(C3CC3)c3ccccc23)c(Cl)c1 ; method: nucleotide incorporation / radiometric ; endpoint: IC50 ; value: <0.05 µM
CCOCn1c(Sc2ccccc2)c(CC)c(=O)[nH]c1=O ; method: nucleotide incorporation ; endpoint: IC50 ; value: 0.214 µM
COc1cc2c(cc1N)CN(c1nn3c(C4CC4)nnc3c3ccccc13)CC2 ; method: RT activity / fluorescence ; endpoint: IC50 ; strain: KER2008 ; value: 4.35 µM
CCc1ccc(-n2c(Br)nnc2SCC(=O)Nc2ccc(S(=O)(=O)O)cc2Br)c2ccccc12 ; method: nucleotide incorporation / radiometric ; endpoint: IC50 ; changes: RT-Y181C ; value: <0.05 µM
CCN1c2ncc(CCc3ccccc3N)cc2C(=O)N(C)c2ccc(Cl)nc21 ; method: nucleotide incorporation / radiometric ; endpoint: IC50 ; changes: RT-Y181C ; value: <1 µM
CC(C)(N)C#Cc1ccc(NC(=O)CSc2nnnn2-c2cc(Br)ccc2Cl)c(Cl)c1 ; method: PicoGreen / fluorescence ; endpoint: IC50 ; strain: WT ; value: <1 µM
CCOC(=O)[C@H](Cc1ccc(O)cc1)NC(=O)c1ccc(NC(=O)CSc2nnc(Br)n2-c2ccc(C3CC3)c3ccccc23)c(Cl)c1 ; method: nucleotide incorporation / radiometric ; endpoint: IC50 ; value: 0.05–0.1 µM
CCN1c2ncc(CCOc3ccc4cc(CC(=O)NN)ccc4c3)cc2C(=O)N(C)c2cccnc21 ; method: nucleotide incorporation / radiometric ; endpoint: IC50 ; strain: WT ; value: <0.1 µM
CCN1c2ncc(CCOc3cccc4c3ccc[n+]4[O-])cc2C(=O)N(C)c2ccc(Cl)nc21 ; method: nucleotide incorporation / radiometric ; endpoint: IC50 ; strain: RT -K103N ; changes: RT-K103N ; value: 0.036 µM
CC(C)(C#Cc1ccc(NC(=O)CSc2nnnn2-c2cc(C(F)(F)F)cc(C3CC3)c2Cl)c(Cl)c1F)NC(=O)c1ccc[n+]([O-])c1 ; method: PicoGreen / fluorescence ; endpoint: IC50 ; strain: WT ; value: <1 µM
CCN1c2ncc(CCOc3ccc(CC(=O)O)c4ccccc34)cc2C(=O)N(C)c2cccnc21 ; method: nucleotide incorporation / radiometric ; endpoint: IC50 ; changes: RT-V106A ; value: >1 µM
CCOC(=O)c1ccc(NC(=O)Nc2ccc(NC(=O)CSc3nnnn3-c3ccc(C(C)(C)C)cc3Cl)c(Cl)c2)cc1 ; method: PicoGreen / fluorescence ; endpoint: IC50 ; strain: WT ; value: <1 µM
CC(C)c1ccc(-n2c(SCC(=O)Nc3ccc(S(N)(=O)=O)cc3Cl)nnc2C(F)F)c2ccccc12 ; method: nucleotide incorporation / radiometric ; endpoint: IC50 ; changes: RT-Y181C ; value: <0.05 µM
Nc1ncnc2c1ncn2[C@H]1CC[C@@H](COP(=O)(O)OP(=O)(O)OP(=O)(O)O)O1 ; method: nucleotide incorporation / radiometric ; endpoint: Ki ; strain: IIIB ; changes: RT-1(IIIB) ; value: 0.24 µM
CC(C)(C)c1ccc(-n2nnnc2SCC(=O)Nc2ccc(NC(=O)Cc3ccc[n+]([O-])c3)cc2Cl)c(Cl)c1 ; method: PicoGreen / fluorescence ; endpoint: IC50 ; strain: WT ; value: <1 µM
CCc1ccc(-n2c(Br)nnc2SCC(=O)Nc2ccc(C(=O)N[C@H](C(=O)OC)C(C)C)cc2Cl)c2ccccc12 ; method: nucleotide incorporation / radiometric ; endpoint: IC50 ; changes: RT-Y181C ; value: <0.05 µM
CC(C)(C#Cc1ccc(NC(=O)CSc2nnnn2-c2ccc(C3CC3)cc2Cl)c(Cl)c1)C(=O)NS(=O)(=O)C1CC1 ; method: PicoGreen / fluorescence ; endpoint: IC50 ; changes: RT-K103 Y181C ; value: <1 µM
CCc1ccc(-n2c(Br)nnc2SCC(=O)Nc2ccc(C(=O)NCC(=O)OC)cc2Cl)c2ccccc12 ; method: nucleotide incorporation / radiometric ; endpoint: IC50 ; changes: RT-Y188L ; value: 0.05–0.1 µM
CCN1c2ncc(/C=C\c3cn[nH]c3)cc2C(=O)Nc2c(C)ccnc21 ; method: nucleotide incorporation / radiometric ; endpoint: IC50 ; strain: WT ; value: <1 µM
COC(=O)[C@@H](NC(=O)c1ccc(NC(=O)CSc2nnc(Br)n2-c2ccc(C3CC3)c3ccccc23)c(Cl)c1)C(C)C ; method: nucleotide incorporation / radiometric ; endpoint: IC50 ; changes: RT-Y181C ; value: <0.05 µM
CCOC(=O)[C@H](Cc1ccc(O)cc1)NC(=O)c1ccc(NC(=O)CSc2nnc(Br)n2-c2ccc(C3CC3)c3ccccc23)c(Cl)c1 ; method: nucleotide incorporation / radiometric ; endpoint: IC50 ; changes: RT-Y181C ; value: <0.05 µM
NS(=O)(=O)c1ccc(NC(=O)CSc2nnc(C(F)F)n2-c2ccc(C3CCC3)c3ccccc23)c(Cl)c1 ; method: nucleotide incorporation / radiometric ; endpoint: IC50 ; value: <0.05 µM
O=C(CSc1nnc(Br)n1-c1ccc(C2CC2)cc1Cl)Nc1ccc(C(=O)O)cc1Cl ; method: nucleotide incorporation / radiometric ; endpoint: IC50 ; changes: RT-Y188L ; value: >0.1 µM
Nc1nc2c(ncn2[C@H]2CC[C@@H](COP(=O)(O)OP(=O)(O)OP(=O)(O)O)O2)c(=O)[nH]1 ; method: nucleotide incorporation / radiometric ; endpoint: IC50 ; changes: RT-F116Y ; value: 0.027 µM
CN(C)CCCNC(=O)C(C)(C)C#Cc1ccc(NC(=O)CSc2nnnn2-c2ccc(CC3CC3)cc2Cl)c(Cl)c1 ; method: PicoGreen / fluorescence ; endpoint: IC50 ; changes: RT-K103 Y181C ; value: <1 µM
NS(=O)(=O)c1ccc(NC(=O)CSc2nnc(Br)n2-c2ccc(C3CCC3)c3ccccc23)c(Cl)c1 ; method: nucleotide incorporation / radiometric ; endpoint: IC50 ; changes: RT-Y181C ; value: <0.05 µM
C#CCCC(=O)Nc1ccc(NC(=O)CSc2nnnn2-c2ccc(C(C)(C)C)cc2Cl)c(Cl)c1 ; method: PicoGreen / fluorescence ; endpoint: IC50 ; strain: WT ; value: <1 µM
NS(=O)(=O)c1ccc(NC(=O)CSc2nncn2-c2ccc(C3CC3)c3ccccc23)c(Cl)c1 ; method: nucleotide incorporation / radiometric ; endpoint: IC50 ; value: <0.05 µM
Cc1cc(C(=O)O)ccc1NC(=O)CSc1nnc(C(F)F)n1-c1ccc(C)c2c1CCCC2 ; method: nucleotide incorporation / radiometric ; endpoint: IC50 ; changes: RT-Y181C ; value: >0.1 µM
CC(C)(C)c1ccc(-n2nnnc2SCC(=O)Nc2ccc(C(=O)NCc3ccco3)cc2Cl)c(Cl)c1 ; method: PicoGreen / fluorescence ; endpoint: IC50 ; changes: RT-K103 Y181C ; value: <1 µM
CCN1c2ncc(CCOc3ccc(/C=C(\C)C(=O)O)c4ccccc34)cc2C(=O)N(C)c2ccc(F)nc21 ; method: nucleotide incorporation / radiometric ; endpoint: IC50 ; changes: RT-Y188L ; value: >1 µM
CCOC(=O)CNC(=O)c1ccc(NC(=O)CSc2nnc(Br)n2-c2ccc(C3CC3)c3ccccc23)c(Cl)c1 ; method: nucleotide incorporation / radiometric ; endpoint: IC50 ; value: <0.05 µM
CC[C@H](C)[C@H](NC(=O)c1ccc(NC(=O)CSc2nnc(Br)n2-c2ccc(C3CC3)c3ccccc23)c(Cl)c1)C(=O)O ; method: nucleotide incorporation / radiometric ; endpoint: IC50 ; changes: RT-Y181C ; value: 0.05–0.1 µM
CC(C)(C#Cc1ccc(NC(=O)CSc2nnnn2-c2ccc(C(C)(C)C)cc2Cl)c(Cl)c1F)C(=O)O ; method: PicoGreen / fluorescence ; endpoint: IC50 ; changes: RT-K103 Y181C ; value: <1 µM
CCc1ccc(-n2c(I)nnc2SCC(=O)Nc2ccc(S(N)(=O)=O)cc2Cl)c2ccccc12 ; method: nucleotide incorporation / radiometric ; endpoint: IC50 ; changes: RT-Y188L ; value: >0.1 µM
COC(=O)Cc1ccc(-c2ccc(NC(=O)CSc3nnnn3-c3ccc(C)cc3Cl)c(Cl)c2)cc1 ; method: PicoGreen / fluorescence ; endpoint: IC50 ; changes: RT-K103 Y181C ; value: <1 µM
COc1ccc2c(C3CC3)ccc(-n3c(Br)nnc3SCC(=O)Nc3ccc(S(N)(=O)=O)cc3Cl)c2c1 ; method: nucleotide incorporation / radiometric ; endpoint: IC50 ; value: <0.05 µM
O=C(O)CNC(=O)c1ccc(NC(=O)CSc2nnc(Br)n2-c2ccc(C3CC3)c3ccccc23)c(Cl)c1 ; method: nucleotide incorporation / radiometric ; endpoint: IC50 ; changes: RT-Y181C ; value: <0.05 µM
Oc1cc2c(cc1O)CN(c1nn3c(C4CC4)nnc3c3ccccc13)CC2 ; method: RT activity / fluorescence ; endpoint: IC50 ; strain: 98US_MSC5016 ; value: 1.79 µM
CCN1c2ncc(CCc3ccnc(C(N)=O)c3)cc2C(=O)N(C)c2ccc(Cl)nc21 ; method: nucleotide incorporation / radiometric ; endpoint: IC50 ; changes: RT-Y181C ; value: <1 µM
COC(=O)C1CCN(CCOc2ccc(NC(=O)CSc3nnnn3-c3ccc(C(C)(C)C)cc3Cl)c(Cl)c2)CC1 ; method: PicoGreen / fluorescence ; endpoint: IC50 ; changes: RT-K103 Y181C ; value: <1 µM
CCc1ccc(-n2c(CF)nnc2SCC(=O)Nc2ccc(C(=O)O)cc2Cl)c2ccccc12 ; method: nucleotide incorporation / radiometric ; endpoint: IC50 ; changes: RT-Y181C ; value: <0.05 µM
CC(C)(C#Cc1ccc(NC(=O)CSc2nnnn2-c2ccc(C3CC3)cc2Cl)c(Cl)c1F)OCCO ; method: PicoGreen / fluorescence ; endpoint: IC50 ; changes: RT-K103 Y181C ; value: <1 µM
CCc1ccc(-n2c(Br)nnc2SCC(=O)Nc2ccc(C(=O)NCC3CCCO3)cc2Cl)c2ccccc12 ; method: nucleotide incorporation / radiometric ; endpoint: IC50 ; value: <0.05 µM
Cc1ccc(-n2nnnc2SCC(=O)Nc2ccc(-c3ccc(CC(N)=O)cc3)cc2Cl)c(Cl)c1 ; method: PicoGreen / fluorescence ; endpoint: IC50 ; strain: WT ; value: <1 µM
CCN1c2ncc(CCOc3ccc4cc(C(=O)NC(C)(C)C(=O)O)ccc4c3)cc2C(=O)N(C)c2cccnc21 ; method: nucleotide incorporation / radiometric ; endpoint: IC50 ; changes: RT-Y188L ; value: >1 µM
CN1CCN(C(=O)NC(C)(C)C#Cc2ccc(NC(=O)CSc3nnnn3-c3ccc(C4CC4)cc3Cl)c(Cl)c2)CC1 ; method: PicoGreen / fluorescence ; endpoint: IC50 ; strain: WT ; value: <1 µM
CCN1c2ncc(CCOc3ccc(C(=O)O)c4c3CCN(C(=O)OC)C4)cc2C(=O)N(C)c2cccnc21 ; method: nucleotide incorporation / radiometric ; endpoint: IC50 ; changes: RT-V106A ; value: >1 µM
CC(C)(C)c1ccc(-n2nnnc2SCC(=O)Nc2ccc(C(=O)NCCC(=O)O)cc2Cl)c(Cl)c1 ; method: PicoGreen / fluorescence ; endpoint: IC50 ; changes: RT-K103 Y181C ; value: <1 µM
Cc1ccc2c(C)cc(C)c(-n3c(SCC(=O)Nc4ccc(S(N)(=O)=O)cc4Cl)nnc3C(F)F)c2n1 ; method: nucleotide incorporation / radiometric ; endpoint: IC50 ; value: <0.05 µM
CC(C)(C#Cc1ccc(NC(=O)CSc2nnnn2-c2cc(C3CC3)ccc2Cl)c(Cl)c1)NC(=O)CN ; method: PicoGreen / fluorescence ; endpoint: IC50 ; changes: RT-K103 Y181C ; value: <1 µM
CCc1cc(CCc2nc3ccccc3o2)c(=O)[nH]c1C ; method: nucleotide incorporation ; endpoint: IC50 ; changes: RT-K103N ; value: 0.6201 µM
CC(C)(C#Cc1ccc(NC(=O)CSc2nnnn2-c2ccc(C(C)(C)C)cc2Cl)c(Cl)c1)OCC(=O)NCC(=O)O ; method: PicoGreen / fluorescence ; endpoint: IC50 ; strain: WT ; value: <1 µM
Cc1cc(C2CC2)cc(Cl)c1-n1c(Br)nnc1SCC(=O)Nc1ccc(C(=O)O)cc1Cl ; method: nucleotide incorporation / radiometric ; endpoint: IC50 ; changes: RT-Y188L ; value: >0.1 µM